# Potato spindle tuber viroid, loop 15: variant abundance in plants

From the data files of Wu et al. 2024, doi:10.1371/journal.ppat.1012142.

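Three N. benthamiana plants were inoculated with the whole mutant pool. Samples came from the inoculated region at 5 days, the leaf margin at 10 and upper systemic leaves at 12.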

The pool varies loop 15 of the PSTVd intermediate strain in the pattern GGAAACCGNNNNNNC; wild type is GGAAACCGCUACUAC (upper and lower strand joined, each 5' to 3', the first 7 letters being the upper strand, closing pairs included).

Values are reads per thousand in the sample; higher means more abundant, 0 means not found.
Each site shows the three plants.
"Pool" is the share in the plasmid pool used as inoculum, on the same scale.
The inoculated region was read from the minus strand, the other sites from the plus strand.

sequence,pool,inoculated region,leaf margin,systemic leaves
GGAAACCGACCCAAC,0.160,0.0983 / 0.0321 / 0.0952,0 / 0.0223 / 0,0 / 0 / 0
GGAAACCGACCCACC,0.176,0.0983 / 0.145 / 0.0762,0.0323 / 0 / 0.0200,0 / 0 / 0
GGAAACCGACCCAGC,0.240,0.0819 / 0.129 / 0.114,0.0485 / 0 / 0.0601,0.0161 / 0 / 0
GGAAACCGACCCAUC,0.240,0.0328 / 0.0803 / 0.0190,0 / 0 / 0.0200,0 / 0 / 0
GGAAACCGACCCCAC,0.208,0.180 / 0.0482 / 0.190,0 / 0 / 0.0401,0 / 0 / 0
GGAAACCGACCCCCC,0.112,0.164 / 0.0321 / 0.0952,0 / 0 / 0.0200,0.0161 / 0 / 0
GGAAACCGACCCCGC,0.272,0.115 / 0.129 / 0.152,0 / 0 / 0.0200,0.0161 / 0 / 0
GGAAACCGACCCCUC,0.208,0.229 / 0.241 / 0.171,0 / 0 / 0,0.0161 / 0 / 0
GGAAACCGACCCGAC,0.240,0.164 / 0.129 / 0.133,0.0162 / 0 / 0.0200,0.0161 / 0 / 0
GGAAACCGACCCGCC,0.224,0.0983 / 0.0482 / 0.0762,0.0323 / 0 / 0,0.0483 / 0 / 0
GGAAACCGACCCGGC,0.240,0.0819 / 0.0643 / 0.0762,0.0162 / 0 / 0,0 / 0 / 0
GGAAACCGACCCGUC,0.288,0.0655 / 0.145 / 0.0952,0.0162 / 0 / 0.0200,0 / 0 / 0
GGAAACCGACCCUAC,0.224,0.262 / 0.337 / 0.400,0.113 / 0.111 / 0.160,0.0161 / 0 / 0
GGAAACCGACCCUCC,0.176,0 / 0.0803 / 0.0952,0 / 0.0445 / 0,0 / 0 / 0
GGAAACCGACCCUGC,0.192,0.164 / 0.129 / 0.0571,0 / 0 / 0.0200,0 / 0 / 0
GGAAACCGACCCUUC,0.256,0.0491 / 0.145 / 0.114,0 / 0.0223 / 0.0200,0 / 0 / 0
GGAAACCGACCGAAC,0.352,0.213 / 0.209 / 0.381,0.0647 / 0.0891 / 0.120,0.0322 / 0.0605 / 0.114
GGAAACCGACCGACC,0.208,0.115 / 0.0482 / 0.0762,0.0485 / 0 / 0.0200,0 / 0 / 0
GGAAACCGACCGAGC,0.272,0.0819 / 0.0803 / 0.171,0 / 0 / 0,0 / 0 / 0
GGAAACCGACCGAUC,0.160,0.393 / 0.337 / 0.419,0.178 / 0.0668 / 0.140,0.0322 / 0 / 0.114
GGAAACCGACCGCAC,0.160,0.0819 / 0.0161 / 0.152,0 / 0 / 0.0401,0 / 0 / 0.0228
GGAAACCGACCGCCC,0.304,0.0819 / 0.0643 / 0.0571,0 / 0 / 0.0200,0 / 0 / 0
GGAAACCGACCGCGC,0.224,0.0819 / 0.0482 / 0.0762,0.0162 / 0.0223 / 0,0 / 0 / 0
GGAAACCGACCGCUC,0.144,0.131 / 0.161 / 0.171,0.0162 / 0.0223 / 0,0 / 0 / 0
GGAAACCGACCGGAC,0.288,0.295 / 0.161 / 0.228,0.0808 / 0.0223 / 0.160,0.0644 / 0 / 0
GGAAACCGACCGGCC,0.224,0.164 / 0.0161 / 0.152,0.0162 / 0 / 0,0 / 0 / 0
GGAAACCGACCGGGC,0.160,0.180 / 0.129 / 0.152,0.0162 / 0 / 0,0.0161 / 0 / 0
GGAAACCGACCGGUC,0.272,0.278 / 0.450 / 0.381,0.0485 / 0.0668 / 0.180,0.0644 / 0.0605 / 0.0456
GGAAACCGACCGUAC,0.176,0.164 / 0.273 / 0.343,0.129 / 0.0891 / 0.120,0.0322 / 0.0605 / 0.0684
GGAAACCGACCGUCC,0.208,0.0819 / 0.0803 / 0.0952,0.0162 / 0.0223 / 0,0.0161 / 0 / 0
GGAAACCGACCGUGC,0.240,0.377 / 0.418 / 0.438,0.129 / 0.111 / 0.160,0.0161 / 0 / 0
GGAAACCGACCGUUC,0.336,0.901 / 0.755 / 0.609,0.113 / 0 / 0.0801,0.0644 / 0.0908 / 0.0228
GGAAACCGACCUAAC,0.240,0.147 / 0.0803 / 0.0952,0.0162 / 0 / 0,0.0161 / 0 / 0
GGAAACCGACCUACC,0.144,0.0983 / 0.0643 / 0.133,0 / 0 / 0.0401,0 / 0 / 0
GGAAACCGACCUAGC,0.240,0.0655 / 0.0643 / 0.114,0 / 0 / 0.0401,0 / 0 / 0
GGAAACCGACCUAUC,0.240,0.131 / 0.0964 / 0.152,0 / 0 / 0,0 / 0 / 0
GGAAACCGACCUCAC,0.192,0.115 / 0.129 / 0.209,0.0162 / 0 / 0,0 / 0 / 0
GGAAACCGACCUCCC,0.352,0.0491 / 0.161 / 0.0571,0.0162 / 0 / 0,0.0161 / 0 / 0
GGAAACCGACCUCGC,0.256,0.164 / 0.177 / 0.0571,0 / 0 / 0.0601,0.0161 / 0.0303 / 0

A selection of 4 entries from above:

* GGAAACCGACCUAAC (pool 0.240): inoculated region 0.147 / 0.0803 / 0.0952; leaf margin 0.0162 / 0 / 0; systemic leaves 0.0161 / 0 / 0
* GGAAACCGACCGGUC (pool 0.272): inoculated region 0.278 / 0.450 / 0.381; leaf margin 0.0485 / 0.0668 / 0.180; systemic leaves 0.0644 / 0.0605 / 0.0456
* GGAAACCGACCCACC (pool 0.176): inoculated region 0.0983 / 0.145 / 0.0762; leaf margin 0.0323 / 0 / 0.0200; systemic leaves 0 / 0 / 0
* GGAAACCGACCGUGC (pool 0.240): inoculated region 0.377 / 0.418 / 0.438; leaf margin 0.129 / 0.111 / 0.160; systemic leaves 0.0161 / 0 / 0

Wild type was 33.9 per thousand in the pool and the most common sequence in every sample (inoculated region 202, 200, 159; leaf margin 724, 746, 710; systemic leaves 856, 883, 880).
With 43,870-66,106 reads a sample, very low values are single reads.
The authors trace changes outside the varied positions to PCR and sequencing errors or to mutation in the plant; presence does not show that a variant is infectious alone.